Anti-infective test results gathered from many reports (values: NIAID ChemDB through PubChem).

All rows: growth or infection tests; organism: Candida albicans; read-out: zone

Blank or dashed fields: not listed here.

structure | strain or isolate | read by | tested at | result
CCO[C@@H]1C[C@@H]([C@H](C)[C@H]2CC[C@]3(C)C4=C(CC[C@@]23C)[C@]2(C)CC[C@H](O)C(C)(C)[C@H]2CC4)CC[C@@H]1C | MTCC 183 | agar diffusion / agar | 0.5 µg/disc | 12 mm
Cc1ccc(N2NOC(=O)C2S(=O)(=O)Nc2ccc(-n3c(-c4ccc(Cl)cc4)nc4ccccc4c3=O)cc2)cc1 | MTCC 227 | agar diffusion | 250 µg/mL | 24 mm
Cc1cc(Cl)nc(N)n1 | - | agar diffusion / agar | 10 µg/mL | 7 mm
COc1ccccc1-n1c(C)nc2ccc(Br)cc2c1=O | - | agar diffusion / agar | 50 µg/mL | 17.33 mm
OC(Cn1cncn1)(Cn1cncn1)c1ccc(F)cc1F | FRCA | agar diffusion | 100 µg/well | 0 mm
COc1ccc(-c2csc(NS(=O)(=O)C3C(=O)ONN3c3ccc(C)cc3)n2)cc1 | MTCC 227 | agar diffusion | 250 µg/mL | 20 mm
C[C@@H]1[C@H](O)[C@@H](C)/C=C/C=C/CC/C=C/C=C/C=C/C=C/C(O[C@H]2O[C@H](C)[C@@H](O)[C@H](N)[C@@H]2O)CC2O[C@](O)(CC(O)C(O)CCC(O)CC(O)CC(O)CC(=O)O[C@H]1C)CC(O)C2C(=O)O | - | agar diffusion | 35 µg/disc | 18 mm
CCCc1c(N2CCN(c3cccc(C(F)(F)F)c3)CC2)[nH]c(=O)[nH]c1=O | IFO 0583 | agar diffusion / agar | 200 µg/disc | <10 mm
CC(=O)Oc1c(-c2ccc(F)cc2)oc2ccc(Cl)cc2c1=O | - | agar diffusion | 100 µg/mL | 19 mm
COc1ccc(CCn2cnc3c(Cl)cccc3c2=O)cc1 | DMBC 005002 | agar diffusion / agar | 10 mg/mL | 12.2 mm
O=c1c2ccccc2ncn1NC(c1ccc(Cl)cc1)P(=O)(Oc1ccccc1)Oc1ccccc1 | - | agar diffusion / agar | 10 µg/mL | 12 mm
CN[C@@H]1[C@@H](O)[C@@H](O[C@@H]2[C@@H](O)[C@H](O[C@H]3O[C@H](CN)CC[C@H]3N)[C@@H](N)C[C@H]2N)OC[C@]1(C)O | - | agar diffusion | 100 µg/mL | 21 mm
C(/C=C/c1ccccc1)=NCCNCCN=C/C=C/c1ccccc1.[I][Hg][I] | - | agar diffusion | 10000 µg/mL | 35 mm
Cc1nc2ccc(Br)cc2c(=O)n1-c1ccccc1Br | - | agar diffusion / agar | 50 µg/mL | 25.84 mm
Nn1cnc2ccccc2c1=O | - | agar diffusion / agar | 10 µg/mL | 8 mm
O=C(O)Cc1ccc(-n2cnc3ccccc3c2=O)cc1 | DMBC 005002 | agar diffusion / agar | 10 mg/mL | 12.8 mm
Clc1ccccc1C(c1ccccc1)(c1ccccc1)n1ccnc1 | - | agar diffusion / agar | 40000 µg/mL | 20 mm
C=CCOc1ccc(C2CC(=O)c3c(O)cc(O)cc3O2)cc1 | ATCC 14053 | agar diffusion / agar | 100 µg/mL | 0 mm
O=c1c2ccccc2nc(-c2ccc(Cl)cc2)n1Cc1ccccc1 | DMBC 005002 | agar diffusion / agar | 10 mg/mL | 26.1 mm
CC(=O)Oc1c(-c2ccc(F)cc2)oc2ccccc2c1=O | - | agar diffusion | 100 µg/mL | 18 mm
[Na+].[O-]Cl | ATCC 10231 | agar diffusion | 50000 µg/mL | 19 mm
Cc1ccc(N2NOC(=O)C2S(=O)(=O)Nc2ccc(-n3c(-c4ccccc4)nc4ccccc4c3=O)cc2)cc1 | MTCC 227 | agar diffusion | 250 µg/mL | 20 mm
CCCc1c(N2CCN(CC)CC2)[nH]c(=O)[nH]c1=O | IFO 0583 | agar diffusion / agar | 200 µg/disc | <10 mm
CC(=O)Oc1c(-c2ccc(N(C)C)cc2)oc2ccc(Cl)cc2c1=O | - | agar diffusion | 100 µg/mL | 19 mm
Cc1nc2ccc(Br)cc2c(=O)n1-c1ccc([N+](=O)[O-])cc1 | - | agar diffusion / agar | 50 µg/mL | 15.75 mm
C=CCN1C(=O)C2(C3=C(C(=O)c4ccccc4C3=O)C3CCCN32)c2ccccc21 | - | agar diffusion | 50 µg/mL | 0 mm
CN(C)[C@@H]1C(=O)C(C(N)=O)=C(O)[C@@]2(O)C(=O)C3=C(O)c4c(O)cccc4[C@@](C)(O)[C@H]3C[C@@H]12 | ATCC 10231 | agar diffusion | 30 µg | 6 mm
Cc1ccc(-c2oc3ccccc3c(=O)c2O)cc1 | - | agar diffusion | 100 µg/mL | 14 mm
Cc1ccc(N2NOC(=O)C2S(=O)(=O)Nc2nc(-c3ccc(F)cc3F)cs2)cc1 | MTCC 227 | agar diffusion | 250 µg/mL | 21 mm
COC(=O)[C@H](Cc1ccccc1)NC(=O)CSC1=C(OC)C(=O)c2ccccc2C1=O | FRCA | agar diffusion | 100 µg/well | 0 mm
O=c1c(O)c(-c2ccccc2)oc2ccc(Cl)cc12 | - | agar diffusion | 100 µg/mL | 14 mm
CC(C)=CCC[C@@H](C)CC=O | - | agar diffusion | 35 µg/disc | 35 mm
CN[C@@H]1[C@@H](O)[C@@H](O[C@@H]2[C@@H](O)[C@H](O[C@H]3O[C@H](CN)CC[C@H]3N)[C@@H](N)C[C@H]2N)OC[C@]1(C)O | WILD TYPE | agar diffusion | 10 µg | 6 mm
CCCc1c(N2CCN(C(=O)OCC)CC2)[nH]c(=O)[nH]c1=O | IFO 0583 | agar diffusion / agar | 200 µg/disc | <10 mm
Cc1ccc(N2NOC(=O)C2S(=O)(=O)Nc2nc(-c3ccc(Cl)cc3Cl)cs2)cc1 | MTCC 227 | agar diffusion | 250 µg/mL | 18 mm
C(/C=C/c1ccccc1)=NCCNCCN=C/C=C/c1ccccc1.N#C[S][Hg][S]C#N | - | agar diffusion | 10000 µg/mL | 24 mm
CC(C)c1c(=O)[nH]c(=O)n2[nH]nnc12 | IFO 0583 | agar diffusion / agar | 200 µg/disc | <10 mm
COc1ccc(-n2cnc3ccccc3c2=O)cc1OC | DMBC 005002 | agar diffusion / agar | 10 mg/mL | 10.5 mm
CC(C)=CCOc1ccc(C2CC(=O)c3c(O)cc(O)cc3O2)cc1 | ATCC 14053 | agar diffusion / agar | 100 µg/mL | 0 mm
CC(=O)OCC1=C(C(=O)O)N2C(=O)[C@@H](NC(=O)Cc3cccs3)[C@H]2SC1 | WILD TYPE | agar diffusion | 30 µg | 6 mm
COc1cc(C2CC(=O)c3c(O)cc(O)cc3O2)ccc1OCC=C(C)C | ATCC 10231 | agar diffusion / agar | 100 µg/mL | 0 mm
Clc1ccc(C(Cn2ccnc2)OCc2ccsc2Cl)c(Cl)c1 | - | agar diffusion / agar | 0.5 mg/mL | 28 mm
COC(=O)[C@H](C)NC(=O)CSC1=CC(=O)c2cccc(OC)c2C1=O | FRCA | agar diffusion | 100 µg/well | 0 mm
COc1ccc(-c2oc3ccccc3c(=O)c2O)cc1OC | - | agar diffusion | 100 µg/mL | 12 mm
COc1ccccc1N1CCN(c2[nH]c(=O)[nH]c(=O)c2C(C)C)CC1 | IFO 0583 | agar diffusion / agar | 200 µg/disc | <10 mm
O=c1c2ccccc2ncn1NC(c1ccc(O)cc1O)P(=O)(Oc1ccccc1)Oc1ccccc1 | - | agar diffusion / agar | 10 µg/mL | 14 mm
Cc1ccc2c(c1)C1(C(=O)N2)C2=C(C(=O)c3ccccc3C2=O)C2CCCN21 | - | agar diffusion | 50 µg/mL | 0 mm
COc1ccc(-n2c(C)nc3ccc(Br)cc3c2=O)cc1 | - | agar diffusion / agar | 50 µg/mL | 17.76 mm

Repeating the final 4 entries:

structure | strain or isolate | read by | tested at | result
COc1ccccc1N1CCN(c2[nH]c(=O)[nH]c(=O)c2C(C)C)CC1 | IFO 0583 | agar diffusion / agar | 200 µg/disc | <10 mm
O=c1c2ccccc2ncn1NC(c1ccc(O)cc1O)P(=O)(Oc1ccccc1)Oc1ccccc1 | - | agar diffusion / agar | 10 µg/mL | 14 mm
Cc1ccc2c(c1)C1(C(=O)N2)C2=C(C(=O)c3ccccc3C2=O)C2CCCN21 | - | agar diffusion | 50 µg/mL | 0 mm
COc1ccc(-n2c(C)nc3ccc(Br)cc3c2=O)cc1 | - | agar diffusion / agar | 50 µg/mL | 17.76 mm

Rows are shuffled and stem from different studies. Zones are inhibition diameters on agar.